Compound potency records, mixed from different reports. Data source: NIAID ChemDB in PubChem.

All rows: cytotoxicity tests; cells: VERO; measure: CC50

CCn is the concentration with n% toxicity to the cells.

compound	method	result
c1ccc(-c2ccc(CNc3ccc(N4CCSCC4)cc3)cc2)cc1		4 µg/mL
Cn1cc(C(=O)c2ccc(-n3ccnc3)cc2)cc1/C=C/C(=O)O		125 µg/mL
Cc1ccc2nc(Cl)c(/C=C/C(=O)c3ccsc3)cc2c1	MTS	4.8 µM
CO[C@H]1/C=C/O[C@@]2(C)Oc3c(C)c(OC(C)=O)c4c(c3C2=O)C(=O)C=C(NC(=O)/C(C)=C\C=C\[C@H](C)[C@H](O)[C@@H](C)[C@@H](O)[C@@H](C)[C@H](OC(C)=O)[C@@H]1C)C4=O		5.32 µg/mL
CCc1nc2ccc(Cl)cn2c1C(=O)NCc1ccc(N2CCCN(c3ccc(S(F)(F)(F)(F)F)cc3)CC2)cc1		>32 µM
COc1cccc([C@H](c2cc3cc(Br)ccc3nc2OC)[C@@](O)(CCN(C)C)c2cncc(C)c2)c1OC		>10 µg/mL
CN1CCN(c2cccc(NCc3ccc(Cl)cc3)c2)CC1		4 µg/mL
COc1ccc2nc(Cl)c(/C=C/C(=O)c3ccsc3)cc2c1	MTS	9.1 µM
O=[n+]1c2ccccc2n([O-])c2ccccc21.[Cl][Cu][Cl]		28.18 µg/mL
Cn1cc(C(=O)c2ccc(Cl)cc2)cc1/C=C/C(=O)NO		15 µg/mL
O=C(O)c1c2n(c3cc(N4CCN(C(=O)c5ccco5)CC4)c([N+](=O)[O-])cc3c1=O)CS2	MTT	137 µM
Cc1ccc(NC(=O)C(Cl)Cl)cc1Cl		2 µg/mL
CSc1nsc(SC)c1C#N		12 µM
Cc1ccc2nc(Cl)c(/C=C/C(=O)c3ccc[nH]3)cc2c1	MTS	11.6 µM
Cn1cc(C(=O)c2ccc([N+](=O)[O-])cc2)cc1/C=C/C(=O)O		15 µg/mL
O=C(Nc1cccc(N2CCSCC2)c1)c1ccc(-c2ccccc2)cc1		8 µg/mL
Cc1ccc2nc(Cl)c(/C=C/C(=O)c3c4ccccc4cc4ccccc34)cc2c1	MTS	20.9 µM
C=C1C(=O)OC(C)(C)C1c1ccccc1		<0.51 µg/mL
Cc1cn2c(C(=O)NCc3ccc(Oc4ccc(C(F)(F)F)cc4)cc3)c(C)nc2s1		>32 µM
CN1CCN(c2ccc(NCc3ccc(Cl)cc3)cc2)CC1		4 µg/mL
C#CCc1cn([C@H]2C[C@H](O)[C@@H](CO)S2)c(=O)[nH]c1=O		492 µM
COc1ccc(C(=O)c2cc(/C=C/C(=O)O)n(C)c2)cc1		500 µg/mL
O=C(O)c1c2n(c3cc(N4CCC(n5c(=O)[nH]c6cc(Cl)ccc65)CC4)c(F)cc3c1=O)CS2	MTT	>125 µM
Cc1ccn2c(C(=O)NCc3ccc(S(F)(F)(F)(F)F)cc3)c(C)nc2c1		>32 µM
CO[C@H]1/C=C/O[C@@]2(C)Oc3c(C)c(O)c4c(c3C2=O)C2=NC(C)(C)N(c3ccccc3)C2=C(NC(=O)/C(C)=C\C=C\[C@H](C)[C@H](O)[C@@H](C)[C@@H](O)[C@@H](C)[C@H](OC(C)=O)[C@@H]1C)C4=O		>10 µg/mL
CSc1nsc(-c2ccc(OCc3ccccc3)cc2)c1C#N		>50 µM
Cc1ccc(NC2=CC(=O)C(=O)c3ccccc32)cc1		1.95 µg/mL
Cc1ccc2nc(Cl)c(/C=C/C(=O)c3sccc3C)cc2c1	MTS	66.5 µM
O=c1[nH]c(=O)n([C@H]2C[C@H](O)[C@@H](CO)S2)cc1CC(F)(F)F		>500 µM
CCN(CC)CCN1c2ccc(C)cc2Sc2ccc3ccccc3c21		5.3 µg/mL
COc1cccc([C@H](c2cc3cc(C#N)ccc3nc2OC)[C@@](O)(CCN(C)C)c2cnc(C)c(C)c2)c1F		>10 µg/mL
O=C(O)c1c2n(c3cc(N4CCC(n5c(=O)[nH]c6cc(Cl)ccc65)CC4)c([N+](=O)[O-])cc3c1=O)CS2	MTT	118 µM
Cc1cccc(Cc2ccc(Cl)cc2)c1O		4.2 µg/mL
Clc1ccc(CNc2cccc(-n3ccnc3)c2)cc1		8 µg/mL
CN(C)C(=O)CC(CSc1ccccc1)Nc1c(C(=O)N/N=C/c2ccccc2F)cnc2cc(F)ccc12	MTT	>62.5 µg/mL
Cc1nc2ccc(Cl)cn2c1C(=O)NCc1ccc2c(c1)CCO2		>32 µM
CSc1nsc(-c2cccs2)c1C#N		6 µM
O=C1CC(SC(=S)N2CCCCC2)C(=O)N1c1ccccc1		3.7 µg/mL
COc1cccc([C@H](c2cc3cc(C#N)ccc3nc2OC)[C@@](O)(CCN(C)C)c2ccc(C)nc2)c1OC		>10 µg/mL
COc1ccc2nc(Cl)c(/C=C/C(=O)c3ccc(Cl)s3)cc2c1	MTS	11.6 µM
Cc1ccn2c(C(=O)NCc3ccc(NCCOCCN)c(F)c3)c(C)nc2c1		>32 µM
OC(c1cc2c(Cl)cc(Cl)cc2c2cc(C(F)(F)F)ccc12)C1CCCCN1		0.95 µg/mL
CSc1nsc(-c2c(Cl)cccc2Cl)c1C#N		5 µM
CC(C)(C)C1=CC(=CC=C2C=CN(CCCCCCCCCCCO)C=C2)C=C(C(C)(C)C)C1=O		2 µg/mL
Cc1ccn2c(C(=O)NCc3cccc(OC(F)(F)F)c3)c(C)nc2c1		>32 µM
CN1CCN(c2ccccc2NCc2ccc(-c3ccccc3)cc2)CC1		4 µg/mL
Cc1ccn2c(C(=O)NCc3ccnc(N4CCC(c5ccc(C(F)(F)F)cc5)CC4)c3)c(C)nc2c1		>32 µM
O=C1C=C(Nc2ccccc2C(=O)CC(=O)C(=O)Nc2cccc([N+](=O)[O-])c2)c2ccccc2C1=O		20.2 µg/mL
CN(C)C(=O)CC(CSc1ccccc1)Nc1c(C(=O)N/N=C/c2ccc(Br)s2)cnc2cccc(C(F)(F)F)c12	MTT	>62.5 µg/mL
O=C(O)c1c2n(c3cc(N4CCC5(CC4)OCCO5)c([N+](=O)[O-])cc3c1=O)CS2	MTT	149 µM
CC1OC(n2ccc(NC(=O)c3ccc(NC(=O)C(C)(N)CO)cc3)nc2=O)CCC1OC1OC(C)C(N(C)C)C(O)C1O		102.4 µg/mL
Cc1ccc2nc(Cl)c(/C=C/C(=O)c3cc(Cl)sc3Cl)cc2c1	MTS	16.9 µM
CN(C)C(=O)CC(CSc1ccccc1)Nc1c(C(=O)N/N=C/c2cccnc2)cnc2cc(F)ccc12	MTT	>62.5 µg/mL
Clc1ccc(CNc2ccc(N3CCSCC3)cc2)cc1		4 µg/mL
CN(C)C(=O)CC(CSc1ccccc1)Nc1c(C(=O)N/N=C/c2ccc(OC(F)(F)F)cc2)cnc2cccc(C(F)(F)F)c12	MTT	>62.5 µg/mL
CNc1nc(N)cc(Nc2ccc(Br)cc2)n1		9.11 µg/mL
O=C(O)c1c2n(c3cc(N4CCC(O)(c5ccc(Cl)cc5)CC4)c([N+](=O)[O-])cc3c1=O)CS2	MTT	64.03 µM
CSc1nsc(-c2ccc(Cl)cc2Cl)c1C#N		8 µM
CC(C)(C)c1cn([C@H]2C[C@H](O)[C@@H](CO)S2)c(=O)[nH]c1=O		475 µM
c1ccc(-c2ccc(CNc3ccc(-n4ccnc4)cc3)cc2)cc1		8 µg/mL
CCCCCCCC/C=N/NC(=O)c1cnc2cc(F)ccc2c1NC(CSc1ccccc1)CC(=O)N(C)C	MTT	>62.5 µg/mL
Cc1ccc(C2NC(=O)C3NC(=O)C(c4cc(O)cc(O)c4)NC(=O)C(NC(=O)C(N)Cc4ccc(O)cc4)Cc4c[nH]c5cc(ccc45)-c4cc3cc(c4O)Oc3ccc(cc3)CC(C(=O)NC(C(=O)O)c3ccc(O)c(O)c3)NC2=O)cc1Cl		>200 µg/mL
O=c1[nH]c(=O)n([C@H]2C[C@H](O)[C@@H](CO)S2)cc1C1CC1		>500 µM
Cc1ccn2c(C(=O)NCc3ccc(N4CCC(NCC5CC5)CC4)c(F)c3)c(C)nc2c1		>32 µM
COc1cccc([C@H](c2cc3cc(C#N)ccc3nc2OC)[C@@](O)(CCN(C)C)c2ccnc(C)c2)c1F		>10 µg/mL

The last 8 rows once more:

compound	method	result
CSc1nsc(-c2ccc(Cl)cc2Cl)c1C#N		8 µM
CC(C)(C)c1cn([C@H]2C[C@H](O)[C@@H](CO)S2)c(=O)[nH]c1=O		475 µM
c1ccc(-c2ccc(CNc3ccc(-n4ccnc4)cc3)cc2)cc1		8 µg/mL
CCCCCCCC/C=N/NC(=O)c1cnc2cc(F)ccc2c1NC(CSc1ccccc1)CC(=O)N(C)C	MTT	>62.5 µg/mL
Cc1ccc(C2NC(=O)C3NC(=O)C(c4cc(O)cc(O)c4)NC(=O)C(NC(=O)C(N)Cc4ccc(O)cc4)Cc4c[nH]c5cc(ccc45)-c4cc3cc(c4O)Oc3ccc(cc3)CC(C(=O)NC(C(=O)O)c3ccc(O)c(O)c3)NC2=O)cc1Cl		>200 µg/mL
O=c1[nH]c(=O)n([C@H]2C[C@H](O)[C@@H](CO)S2)cc1C1CC1		>500 µM
Cc1ccn2c(C(=O)NCc3ccc(N4CCC(NCC5CC5)CC4)c(F)c3)c(C)nc2c1		>32 µM
COc1cccc([C@H](c2cc3cc(C#N)ccc3nc2OC)[C@@](O)(CCN(C)C)c2ccnc(C)c2)c1F		>10 µg/mL

Lines come from different laboratories, so protocols vary. An empty or dashed field is not shown.